The results in this text go back to patent US20090062198A1, “Maurotoxin, PI1 and HSTX1 derivatives” (published 2009).

This assay addresses mammalian voltage-gated Kv1.2 channel (mammalian).

[Abu9,19,29,34]-MTX (peptide) returned a blocking activity (pharmacological assays) of 42 nM.
